{
  "source": "patent US20100291591A1",
  "about": "“NOVEL PLATING MEDIA” (priority 2007, published 2010)",
  "test_system": "S. aureus",
  "test": "Tolerance of S. aureus towards ELF phosphate in S. aureus plating media",
  "type": "cell-based",
  "from_the_text": "Varying concentrations of ELF® phosphate in S. aureus plating media were used to determine the effect on growth and sensitivity of S. aureus to ELF® phosphate. Colony growth in the presence of ELF® phosphate was compared to colony growth in media without ELF® phosphate.",
  "data": [
    {"smiles": "O=P(O)(O)O.O=c1[nH]c(-c2cc(Cl)ccc2O)nc2ccc(Cl)cc12", "note": "[ELF ® Phosphate, 6-chloro-2-(5-chloro-2-hydroxyphenyl)-quinazolin-4(3H)-one phosphate]", "values": [
      {"measurement": "Sensitivity (time until appearance of distinct colonies at 360 nm)", "setting": "ELF phosphate 0.080 g/L", "result": "24 to 48", "unit": "h"},
      {"measurement": "Sensitivity (time until appearance of distinct colonies at 360 nm)", "setting": "ELF phosphate 0.200 g/L", "result": "12 to 16", "unit": "h"},
      {"measurement": "Sensitivity (time until appearance of distinct colonies at 360 nm)", "setting": "ELF phosphate 0.400 g/L", "result": "10 to 12", "unit": "h"},
      {"measurement": "Sensitivity (time until appearance of distinct colonies at 360 nm)", "setting": "ELF phosphate 0.600 g/L", "result": "10 to 12", "unit": "h"},
      {"measurement": "concentration up to which sensitivity increased, then leveled off", "setting": "S. aureus plating media", "result": "about 400 mg/L"}
    ]}
  ]
}
